Biological target: recombinant mouse PrP (mouse), P04925

Binder: YFCARWNWERDAMDYWG [CDR3H]
- Kd: 1 to 10 µM
